Data reported in ChEMBL document CHEMBL5579834 (Eur J Med Chem, 2024).

Experiments:
[1] = Selectivity index, ratio of CC50 for HEK293T cells to IC50 for antiviral activity against HIV-based lentiviral pseudotyped Marburgvirus harboring mucin domain deleted GP infected in HEK293T cells assessed as inhibition of viral entry; assay type: toxicity, cell-based; conditions: human
[2] = Drug uptake in human skin fibroblast lysosomes assessed as fold change in corrected total cell fluorescence at 50 uM measured after 2 hrs by LysoTracker Red DND-99 dye based laser scanning confocal microscopy relative to control; assay type: ADME, subcellular, Lysosome
[3] = Selectivity index, ratio of CC50 for HEK293T cells to IC50 for antiviral activity against HIV-based lentiviral pseudotyped Ebolavirus harboring mucin domain deleted GP infected in HEK293T cells assessed as inhibition of viral entry; assay type: toxicity, cell-based; conditions: human

| SMILES | Ratio CC50/IC50 [1] | fold change (FC) [2] | Ratio CC50/IC50 [3] |
| --- | --- | --- | --- |
| CN(C)CCOc1ccc(/C(=C(/CCCl)c2ccccc2)c2ccccc2)cc1 [TOREMIFENE] | 24 | 0.27 | 85 |
| C[C@@H]1[C@H]2C[C@@H](C[C@H]1OC(=O)CCN1CCN(C)CC1)C2(C)C | 22 | – | 65 |
| CCN1CCN(CCCC(=O)O[C@H]2C(C)(C)[C@H]3CC[C@]2(C)C3)CC1 | 35 | – | 168 |
| CN1CCN(CCCC(=O)O[C@H]2C(C)(C)[C@H]3CC[C@]2(C)C3)CC1 | > 38 | – | > 250 |
| CC1(C)[C@H]2CC[C@](C)(C2)[C@H]1OC(=O)CCCN1CCCCC1 | 35 | – | 241 |
| CCN1CCN(CC(=O)O[C@H]2C(C)(C)[C@H]3CC[C@]2(C)C3)CC1 | 30 | – | 99 |
| CN1CCN(CC(=O)O[C@H]2C(C)(C)[C@H]3CC[C@]2(C)C3)CC1 | 23 | – | 32 |
| CC1CCN(CC(=O)O[C@H]2C(C)(C)[C@H]3CC[C@]2(C)C3)CC1 | 12 | – | 12 |
| C[C@@H]1[C@H]2C[C@@H](C[C@H]1OC(=O)CN1CCN(C)CC1)C2(C)C | 13 | – | 131 |
| CC1CCN(CCCC(=O)O[C@H]2C(C)(C)[C@H]3CC[C@]2(C)C3)CC1 | 5 | – | 46 |
| CC1(C)[C@H]2CC[C@](C)(C2)[C@H]1OC(=O)CCN1CCOCC1 | 4 | – | 5 |
